# Experiments:
# Assay type in all cases: toxicity, cell-based
# [1] = Selectivity index, ratio of CC50 for human A549 cells to EC50 for HIV/EBOV-GP infected in human A549 cells
# Method in brief: (§1)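 Ratio CC50/EC50. CC50 is A549 cytotoxicity by CellTiter 96 aqueous nonradioactive cell proliferation assay.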
# [2] = Selectivity index, ratio of CC50 for human A549 cells to EC50 for HIV/MARV-GP infected in human A549 cells; method in brief: as §1
# [3] = Selectivity index, ratio of CC50 for human HeLa cells to EC50 for Ebola virus 1976 Mayinga in human HeLa cells
structure (smiles),measurement,setting,value
CN(C)CCOc1ccc(/C(=C(/CCCl)c2ccccc2)c2ccccc2)cc1 [TOREMIFENE],Ratio CC50/EC50,[1],299
same,Ratio CC50/EC50,[2],299
same,Ratio CC50/EC50,[3],51

# Reference: ChEMBL document CHEMBL4619772 (J Med Chem, 2020)
